Construct, isoform or probe ends are uncertain for at least one entry.
System: His-MBP-AlpA (Pseudomonas aeruginosa ID40)
Assay: EMSA
Conditions: recombinant protein, protein details: N-terminal His-MBP (TEV site), not removed, label: 5' IRDye700

Sequence: CGGTGTTGCACGCGGCGGGACGCTCGCGGTAGTTTTTTCCCATGATCACG (double strand) [ABE probe (ampDh3 promoter)]
- binding result (0.3125 nM probe, weak, smeary shift): binds
- binding result (plus BSA (complex formation not affected)): binds

— PMC9998450
